Tests used:
muscle AChE = assay: Muscle AChE-R accumulation and AChE activity in sequential fractions, 10 days post-treatment; details: lethal dose of paraoxon
NMJ = NMJ density and area in diaphragm (AChE activity staining); details: 0.8×LD50 paraoxon vs PBS control, 10 days
plasma AChE = assay: Delayed effects of OP poisoning: survival and plasma AChE 10 days post-treatment; details: unprotected, sub-lethal (0.8 LD50) paraoxon challenge

CCOP(=O)(OCC)Oc1ccc([N+](=O)[O-])cc1 was tested. Which “decrease in membrane-bound detergent-soluble forms of AChE” value (muscle AChE) did it give?
Its value is 50%.

And the “NMJ density and fraction of large NMJs” value (NMJ)?
The value was “increased both the density and the fraction of large NMJs”.

And the survival rate (plasma AChE)?
The survival rate was 100%.

Source: patent US20110064716A1, “MATERIALS AND METHODS FOR TREATING OR PREVENTING ORGANOPHOSPHATE EXPOSURE ASSOCIATED DAMAGE” (published 2011)
